Measured values from several laboratories, pooled; numbers as filed in NIAID ChemDB.

Shared fields: growth or infection tests; organism: HIV-1; cells: HeLa; measure: EC50

Conditions beyond the fields shown may differ between rows. a–b is a range or a potency band. ECn is the concentration giving n% inhibition of infection, replication or growth. Blank or dashed fields: not listed here.

smiles	strain	changes	method	conditions	result
Cc1cc2c(cc1NCc1ccc(F)cc1)c(=O)c(C(=O)NCc1ccc(F)cc1)cn2[C@H](CO)C(C)(C)C	NL4-3	-	luciferase	pseudotyped	>0.1 µM
CCOC(=O)c1cccc(NC(=O)Nc2cccc3c(C(=O)C(=O)N4CCN(C(=O)c5ccccc5)C[C@H]4C)c[nH]c23)c1	-	-	luciferase / reporter gene	-	<1 µM
NC(=O)c1ncc(Cl)c2c(C(=O)C(=O)N3CCN(C(=O)c4ccccc4)CC3)c[nH]c12	-	-	luciferase	-	≤0.0002 µM
COc1cc2c(cc1Cc1ccc(F)cc1F)c(=O)c(C(=O)O)cn2[C@H](CO)C(C)(C)C	NL4-3	-	luciferase	pseudotyped	<0.01 µM
CC1CN(C(=O)c2ccccc2)CCN1C(=O)C(=O)c1cc2cc(Cl)ccc2[nH]1	-	-	luciferase / reporter gene	-	<1 µM
Cc1cc(C#N)cc(C)c1Oc1nc(Nc2ccc(C#N)cc2)nc2sccc12	-	-	luciferase	-	<0.1 µM
CCN(CC)S(=O)(=O)N1CCN(C(=O)C(=O)c2c[nH]c3c(C(=O)NC)ccc(F)c23)CC1	Recombinant	-	luciferase	-	1–5 µM
O=C(C(=O)N1CCN(C(=O)c2ccccc2)CC1)c1cccc2[nH]ccc12	-	-	luciferase / reporter gene	-	<1 µM
CNC(=O)c1ccc(F)c2c(C(=O)C(=O)N3CCN(S(=O)(=O)Nc4ccccc4)CC3)c[nH]c12	Recombinant	-	luciferase	-	1–5 µM
CN1c2ccccc2C2C1C=C(C#N)C(=O)N2c1ccc([N+](=O)[O-])cc1	1617-1	-	GFP / fluorescence	-	0.7 µM
COc1cnc(N(C)c2ccccn2)c2[nH]cc(C(=O)C(=O)N3CCN(C(=O)c4ccccc4)CC3)c12	-	-	luciferase	-	<1 µM
CC[n+]1c(-c2ccccc2)c2cc(N)ccc2c2ccc(NC(N)=O)cc21	-	-	-	-	15 µM
CC(=O)c1c(C)nc(-c2ccccc2)nc1NC(=O)c1ccccc1	O-MVP5180	-	GFP / fluorescence	-	5 µM
O=C(C(=O)N1CCN(C(=O)c2ccccc2)CC1)c1csc2ccccc12	-	-	luciferase / reporter gene	-	1–5 µM
CC(O)(C(=O)NN=C1CCCC1)c1ccccc1	-	-	cell fusion / luminescence	-	>112 µM
Cc1cc(C)c(Oc2nc(Nc3ccc(C#N)cc3)nc3c(C)csc23)c(C)c1	-	-	luciferase	-	0.01–0.1 µM
O=C(N/N=C/c1cccs1)c1ccccc1	-	-	cell fusion / luminescence	-	>112 µM
Cc1cc(C)c(Oc2nc(Nc3ccc(C#N)cc3)nc3ccsc23)c(C)c1	Y-188L	-	luciferase	-	<0.01 µM
COc1cc2c(cc1NCc1ccc(Cl)c(F)c1)C(=O)C(=O)C(C)N2c1ccc(C)cc1	NL4-3	-	luciferase	pseudotyped	>0.1 µM
C[C@@H]1CN(C(=O)c2ccccc2)CCN1C(=O)C(=O)c1c[nH]c2c(NS(=O)(=O)N(C)C)cccc12	-	-	luciferase / reporter gene	-	<1 µM
CC[n+]1c(-c2ccccc2)c2cc(NC(N)=O)ccc2c2ccc(NC(N)=O)cc21	-	-	-	-	1.5 µM
CCOC(=O)c1cccc(NC(=O)Nc2cccc3c(C(=O)C(=O)N4CCC(=C(C#N)c5ccccc5)CC4)c[nH]c23)c1	-	-	luciferase / reporter gene	-	<1 µM
CNC(=O)c1ccc(F)c2c(C(=O)C(=O)N3CCN(S(=O)(=O)N4CCOCC4)CC3)c[nH]c12	Recombinant	-	luciferase	-	>5 µM
O=C(CCNc1n[nH]c(=O)[nH]c1=O)N/N=C/c1ccccn1	-	-	cell fusion / luminescence	-	>112 µM
COc1ccc2cc(C(=O)C(=O)N3CCN(C(=O)c4ccccc4)CC3C)[nH]c2c1	-	-	luciferase / reporter gene	-	<1 µM
COc1ccc(OCC(=O)N=Nc2c(O)n(C)c3ccccc23)cc1	-	-	cell fusion / luminescence	-	>112 µM
COc1cnc(-n2ccc(NC(=O)C3OC3C(=O)O)n2)c2[nH]cc(C(=O)C(=O)N3CCN(C(=O)c4ccccc4)CC3)c12	-	-	luciferase	-	<1 µM
O=C(Cc1ccccc1)N/N=C/c1ccccc1F	-	-	cell fusion / luminescence	-	>112 µM
CC(C)[C@@H](CO)n1cc(C(=O)O)c(=O)c2cc(F)c(NCc3ccc(F)cc3)nc21	NL4-3	-	luciferase	pseudotyped	>0.1 µM
O=C(CC1CNc2cccc(F)c21)N1CCN(C(=O)c2ccccc2)CC1	-	-	luciferase / reporter gene	-	<1 µM
C[C@@H]1CN(C(=O)c2ccccc2)CCN1C(=O)C(=O)c1c[nH]c2c(-c3c[n+]([O-])cc(=O)[nH]3)nccc12	-	-	luciferase	-	<1 µM
COc1ccc2[nH]c(C(=O)NCc3ccc(Cl)c(Oc4cc(Cl)cc(C#N)c4)c3)cc2c1	HXB2	RT-K103N	-	-	>1 µM
C[C@@H]1CN(C(=O)c2ccccc2)CCN1C(=O)C(=O)c1c[nH]c2c(NC(=O)c3cccc(B(O)O)c3)cccc12	-	-	luciferase / reporter gene	-	<1 µM
CC(C)(C)OC(=O)C(=O)N1CCN(C(=O)C(=O)c2c[nH]c3c(-c4cnccn4)ncc(Cl)c23)CC1	-	-	luciferase	-	<1 µM
Cc1cc(C#N)cc(C)c1Nc1nc(Nc2ccc(C#N)cc2)nc2c(C)csc12	L1001-K103N	-	luciferase	-	>0.1 µM
N#CC(C(=O)c1cccc2cc[nH]c12)N1CCN(C(=O)c2ccccc2)CC1	-	-	luciferase / reporter gene	-	>0.5 µM
COC(=O)c1ccc(F)c2c(C(=O)C(=O)N3CCN(S(=O)(=O)N(C)C)CC3)c[nH]c12	Recombinant	-	luciferase	-	>5 µM
C[C@@H]1CN(C(=O)c2ccccc2)CCN1C(=O)C(=O)c1ccc2[nH]cc(C#N)c2c1	-	-	luciferase / reporter gene	-	<1 µM
CC12CCC(C/C1=N\NC(=O)Nc1ccccc1)C2(C)C	-	-	cell fusion / luminescence	-	>112 µM

For reference, 5 entries again:

smiles,strain,changes,method,conditions,result
CNC(=O)c1ccc(F)c2c(C(=O)C(=O)N3CCN(S(=O)(=O)N4CCOCC4)CC3)c[nH]c12,Recombinant,-,luciferase,-,>5 µM
C[C@@H]1CN(C(=O)c2ccccc2)CCN1C(=O)C(=O)c1c[nH]c2c(NS(=O)(=O)N(C)C)cccc12,-,-,luciferase / reporter gene,-,<1 µM
CCOC(=O)c1cccc(NC(=O)Nc2cccc3c(C(=O)C(=O)N4CCC(=C(C#N)c5ccccc5)CC4)c[nH]c23)c1,-,-,luciferase / reporter gene,-,<1 µM
COc1cc2c(cc1NCc1ccc(Cl)c(F)c1)C(=O)C(=O)C(C)N2c1ccc(C)cc1,NL4-3,-,luciferase,pseudotyped,>0.1 µM
C[C@@H]1CN(C(=O)c2ccccc2)CCN1C(=O)C(=O)c1c[nH]c2c(NC(=O)c3cccc(B(O)O)c3)cccc12,-,-,luciferase / reporter gene,-,<1 µM